Measurements reported in PubChem BioAssay AID504761 (Drosophila RNAi Screening Center, 2011).

Screen: 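Insect host genes that dengue virus relies on to spread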 (primary screen)
System: D.Mel-2 cells from Drosophila
Reagent: long dsRNA against Drosophila genes
Challenge: infection with dengue virus type 2; dose and infection time not stated
Detection: 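Cells stained for dengue envelope protein and imaged; percent of infected cells per well on duplicate plates, ranked by infection, with stained nuclei counted for cell number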
Scale: infection score: higher = more virus-infected cells; cell count: higher = more cells in the well
Call rule: 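Low infection ranks in the two replicates (chance level up to 0.065) followed by a retest with a 1.5-fold or larger significant decrease, p below 0.05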
Calls: active = confirmed: knock-down lowers infection; inactive = not picked or not confirmed
In all, the deposit lists about 22,000 reagents; this is an unselected part of those with a known target gene and a result. In the full data, 116 (0.52%) were called active. 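Calls depend on retest data that are not deposited; infection was ranked per plate without normalising between plates; the unit of the infection score is not given.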 The raw values are shown without normalisation. Names joined by + are all predicted targets of the reagent. Not given: the amount of reagent, the time to read-out.

| gene knocked down | amplicon | infection score, replicate 1 | infection score, replicate 2 | cell count, replicate 1 | cell count, replicate 2 | call |
| --- | --- | --- | --- | --- | --- | --- |
| qvr | DRSC05280 | 3.88 | 2.57 | 5805 | 5845 | inactive |
| RIC-3 | DRSC04243 | 13.6 | 12.3 | 6557 | 6610 | inactive |
| RIC-3 | DRSC04543 | 18.6 | 32.6 | 5605 | 5836 | inactive |
| MTA1-like | DRSC12382 | 7.13 | 4.66 | 6224 | 5907 | inactive |
| MTA1-like | DRSC22022 | 15.3 | 10.8 | 6026 | 6211 | inactive |
| MTA1-like | DRSC23683 | 3.6 | 3.28 | 6258 | 6465 | inactive |
| MTA1-like | DRSC24944 | 5.22 | 2.63 | 5577 | 5430 | inactive |
| 5-HT1A | DRSC05030 | 2.23 | 2.94 | 6814 | 6671 | inactive |
| 5-HT1A | DRSC26404 | 6.84 | 4.35 | 6019 | 6075 | inactive |
| alpha-Man-IIa | DRSC15393 | 1.08 | 1.69 | 6372 | 6619 | inactive |
| Hrb27C | DRSC03347 | 1.71 | 2.78 | 3735 | 3527 | inactive |
| Hrb27C | DRSC28323 | 6.54 | 1.96 | 2705 | 3115 | inactive |
| CG17030 | DRSC08503 | 1.47 | 5.2 | 6105 | 5824 | inactive |
| CG11342 | DRSC08175 | 1.46 | 1.28 | 6357 | 6239 | inactive |
| CG11342 | DRSC26281 | 7.36 | 6.83 | 5459 | 5474 | inactive |
| Adh + Adhr | DRSC01862 | 25.5 | 5.06 | 5756 | 6209 | inactive |
| Adh + Adhr | DRSC01863 | 5.25 | 11.3 | 5957 | 5965 | inactive |
| RhoGAP68F | DRSC10717 | 7.85 | 3.74 | 6052 | 5986 | inactive |
| CG11396 | DRSC11654 | 4.92 | 5.41 | 6317 | 6290 | inactive |
| CG14817 | DRSC18547 | – | 12.7 | 347 | 1712 | inactive |
| CG14011 | DRSC02343 | 5.55 | 4.3 | 6508 | 6813 | inactive |
| CG14011 | DRSC27954 | 5.71 | 7.1 | 6204 | 6140 | inactive |
| pzg | DRSC11848 | 3.35 | 9.48 | 6441 | 5982 | inactive |
| CG1523 | DRSC15033 | 2.17 | 9.83 | 6037 | 916 | inactive |
| CG1523 | DRSC26315 | 13.5 | 6.37 | 5870 | 6425 | inactive |
| DCTN6-p27 | DRSC02609 | 4.22 | 7.16 | 6262 | 6174 | inactive |
| DCTN6-p27 | DRSC22810 | 1.9 | 6.99 | 5201 | 3205 | inactive |
| DCTN6-p27 | DRSC29904 | 14.2 | 7.78 | 6370 | 5941 | inactive |
| CG32260 | DRSC08084 | 3.41 | 2.32 | 6506 | 6238 | inactive |
| CG32260 | DRSC24480 | 1.3 | 1 | 6872 | 6803 | inactive |
| CG5033 | DRSC07410 | 5.94 | 9.24 | 5879 | 5672 | inactive |
| CG5033 | DRSC27783 | 10.9 | 12 | 5700 | 6733 | inactive |
| dx | DRSC18767 | 0.58 | 1.02 | 6187 | 6693 | inactive |
| dx | DRSC24880 | 4.38 | 2.71 | 6800 | 6678 | inactive |
| CCT2 | DRSC18415 | 1.76 | 11.7 | 4956 | 4987 | inactive |
| CCT2 | DRSC27831 | 4.88 | 18.7 | 6620 | 6086 | inactive |
| Gr9a | DRSC22506 | 1.44 | 7.96 | 5985 | 6624 | inactive |
| CG14448 | DRSC11705 | 10.3 | 9.77 | 6741 | 6725 | inactive |
| CG14448 | DRSC30062 | 4.01 | 6.58 | 6166 | 5626 | inactive |
| CR30374 | DRSC05080 | 0.01 | 0.88 | 6785 | 6470 | inactive |
| gcm2 | DRSC03538 | – | – | 483 | 586 | inactive |
| gcm2 | DRSC29823 | 4.61 | 3.51 | 6078 | 6658 | inactive |
| CG3257 | DRSC04351 | 9.24 | 18.6 | 6409 | 5789 | inactive |
| CG3257 | DRSC27446 | 13.5 | 6.95 | 6746 | 6659 | inactive |
| mbc | DRSC16995 | 6.8 | 1.58 | 6193 | 444 | inactive |
| CG15564 | DRSC15102 | 0.55 | 0.62 | 6727 | 6611 | active |
| CG6280 | DRSC06972 | 4.26 | 6.95 | 6823 | 6721 | inactive |
| CG17233 | DRSC23352 | 2.12 | 4.18 | 3438 | 3900 | inactive |
| ham | DRSC02070 | 2.26 | 6.67 | 5794 | 2772 | inactive |
| ham | DRSC02512 | 2.82 | 8.01 | 6390 | 5768 | inactive |
| ham | DRSC02513 | 0.95 | 3.04 | 6505 | 6510 | inactive |
| ham | DRSC27582 | 1.72 | 0.55 | 6868 | 550 | inactive |
| CG15047 | DRSC19623 | 11.8 | 9.13 | 5712 | 5717 | inactive |
| CG15047 | DRSC21443 | 2.13 | 4.1 | 6156 | 6343 | inactive |
| CG15047 | DRSC27296 | 26.5 | 10.9 | 5512 | 3957 | inactive |
| Hap40 | DRSC20085 | 0.85 | 5.25 | 6562 | 6285 | inactive |
| Hap40 | DRSC26124 | 12.5 | 5.22 | 5396 | 6304 | inactive |
| St1 | DRSC04504 | 4.78 | 16.3 | 6759 | 5794 | inactive |
| St1 | DRSC25543 | 4.08 | 4.92 | 5778 | 6076 | inactive |

Single entries from above:
Value of DCTN6-p27 [DRSC22810] under “cell count, replicate 1”: 5201
For “cell count, replicate 1”, CCT2 [DRSC18415] is entered as 4956
Entry for MTA1-like [DRSC24944] under “cell count, replicate 1”: 5577
Value for CG1523 [DRSC15033] under “infection score, replicate 2”: 9.83
CR30374 [DRSC05080], infection score, replicate 2 = 0.88
qvr [DRSC05280], infection score, replicate 2: 2.57
